Patent publication US6340697B1, “Oxime derivatives and agricultural chemicals containing the same” (Dainippon Ink and Chemicals, Inc., priority 1997, dated 2002)

System: Pseudoperonospora cubensis (a metalaxyl resistant fungi strain)
Assay: Control test of plant disease caused by Pseudoperonospora cubensis (leaf disc test; Test Examples 3 and 8)
Type: in vivo

| SMILES | Evaluation (cucumber leaf disc immersed 30 minutes at 10 ppm, metalaxyl resistant strain, 7 days) | Evaluation (Test Example 8, leaf disc test, same method as Test Example 3, Table 99) |
| --- | --- | --- |
| Cc1nsnc1C(=NOCc1csc(NC(=O)C(Cl)Cl)n1)c1ccccc1 [8-(b)-18] | B (grade “B” was selected when the number of diseased plants, which include plants with lesions or withered plants, is around 10% among the total numbers of plants) | – |
| Cc1nonc1C(=NOCc1ccccn1)c1ccc(Cl)cc1 [4-(c)-3] | – | B (grade “B” was selected when the number of diseased plants, which include plants with lesions or withered plants, is around 10% among the total numbers of plants) |
